ChEMBL document CHEMBL4316619 (Bioorg Med Chem Lett, 2019)
The source made the active and inactive calls. The calls are words filed in the database; no cut-off is given here.

Test system: unidentified influenza virus
Assay: Inhibition of influenza virus NS1 expressed in yeast 9526-6-2 harboring pYES assessed as restoration of yeast growth at 50 uM measured up to 60 hrs

For COc1cc(-c2ccnc3c2c(C)nn3-c2cccc(C(F)(F)F)c2)ccc1O, which inhibition is on record?
Its inhibition is “Active”.

For Cc1nn(-c2ccc(Cl)cc2)c2nc(N)c(C#N)c(-c3ccc(O)c(O)c3)c12, which inhibition is on record?
Its inhibition is “Active”.

How did the inhibition turn out when COc1cc(-c2c(C#N)c(N)nc3c2c(C)nn3-c2ccc(F)cc2)ccc1O was run?
The inhibition was “Active”.

For COc1cc(-c2ccnc3c2c(C)nn3-c2ccc(C(F)(F)F)cc2)ccc1O, which inhibition is on record?
The inhibition was “Active”.

Which inhibition does the source give for Cc1ccc(-n2nc(C)c3c(-c4ccc(O)c(O)c4)c(C#N)c(N)nc32)cc1C here?
Its inhibition is “Active”.
